Experimental data from the supplement of paper PMC12637763.
This is one part of the list. Env chains of viruses from a treatment-interruption trial, translated from the printed DNA. IC50 / IC80 of two broadly neutralizing antibodies; lower = more sensitive virus; >50 µg/ml means not reached and <0.001 µg/ml is below the lowest dose. No active / inactive call.

B1: HIV-1 Env, rebound clone, antibody arm (protein)
chain: MRVREIRRNYLWRWGTLLLGILMMICSADNWWVTVYYGVPVWKEATTTLFCASDAKAYETEVHNVWATHACVPTDPNPQEVALENVTENFNMWKNNMVEQMQEDIISLWDQSLKPCVELTPLCVTLNCTNVNNTRTNSTISGPTAKPGEEEMKNCSFNITTGIRDKIKKEYALFYKLDVVPIDDSNTSYRLISCNTSVIKQACPKVSFEPIPIHYCAPAGFAILKCRDKQFNGTGPCRNVSTVQCTHGIKPVVTTQLLLNGSLAEEEVVIRSANFSDNAKIIIVQLNESVQINCTRPNNNTRKSIPIGPGRAFYATGDIIGDIRQAHCSISKTRWNNTLKLIREKLKTQFGDKTIVFNQSSGGDPEIVTHSFNCGGEFFYCNTTPLFNSTEGSNTTAENNTTDIITLQCRIKQIINMWQKVGKAMYAPPIRGNISCSSNITGLLLTRDGGNTTDNGSEIFRPGGGDMRDNWRSELYKYKVVKIEPIGLAPTKAKRRVVQREKRALGMGALFLGFLGAAGSTMGAASVTLTVQARQLLSGIVQQQNNLLRAIEAQQHLLQLTVWGIKQLQARVLAVESYLRDQQLLGIWGCSGKLICTTAVPWNISWSKSKSWNKTNLADIWENMTWMQWESEIDNYTNIIYQLIEESQNQQEKNEKDLLELDKWASLWNWFSISNWLWYIKLFIMIVGGLIGLRIIFSVLSIVNRVRQGYSPLSFQTRPPAARGHDRPEGIEEGGGDRDRDRSNQLVDGFLALIWVDLRSLCLFSYHRLRDFLLVVTRIVELLGRRGWEILKYWWNLLQYWSQELKNSAVSLLNATAIAVAEGTDRVIEIVQRAFRAIIHIPTRIRQGFERALV
B2: HIV-1 Env, rebound clone, antibody arm (protein)
chain: MRVREIRRNYLWRWGTLLLGILMMICSADNWWVTVYYGVPVWKEATTTLFCASDAKAYETEVHNVWATHACVPTDPNPQEVALENVTENFNMWKNNMVEQMQEDIISLWDQSLKPCVELTPLCVTLNCTNVNNTRTNSTISGPTAKPGEEEMKNCSFNITTGIRDKIKKEYALFYKLDVVPIDDSNTSYRLISCNTSVIKQACPKVSFEPIPIHYCAPAGFAILKCRDKQFNGTGPCRNVSTVQCTHGIKPVVTTQLLLNGSLAEEEVVIRSANFSDNAKIIIVQLNESVQINCTRPNNNTRKSIPIGPGRAFYATGDIIGDIRQAHCNISKTRWNNTLKLIREKLKTQFGDKTIVFNQSSGGDPEIVTHSFNCGGEFFYCNTTPLFNSTEGSNTTAENNTTDIITLQCRIKQIINMWQKVGKAMYAPPIRGNISCSSNITGLLLTRDGGNTTDNGSEIFRPGGGDMRDNWRSELYKYKVVKIEPIGLAPTKAKRRVVQREKRALGMGALFLGFLGAAGSTMGAASVTLTVQARQLLSGIVQQQNNLLRAIEAQQHLLQLTVWGIKQLQARVLAVESYLRDQQLLGIWGCSGKLICTTAVPWNISWSKSKSWNKTNLADIRENMTWMQWESEIDNYTNIIYQLIEESQNQQEKNEKDLLELDKWASLWNWFSISNWLWYIKLFIMIVGGLIGLRIIFSVLSIVNRVRQGYSPLSFQTRPPAARGHDRPEGIEEGGGDRDRDRSNQLVDGFLALIWVDLRSLCLFSYHRLRDFLLVVTRIVELLGRRGWEILKYWWNLLQYWSQELKNSAVSLLNATAIAVAEGTDRVIEIVQRAFRAIIHIPTRIRQGFERALL
B3: HIV-1 Env, rebound clone, antibody arm (protein)
chain: MRVREIRRNYLWRWGTLLLGILMMICSADNWWVTVYYGVPVWKEATTTLFCASDAKAYETEVHNVWATHACVPTDPNPQEVALENVTENFNMWKNNMVEQMQEDIISLWDQSLKPCVELTPLCVTLNCTNVNNTRTNSTISGPTAKPGEEEMKNCSFNITTGIRDKIKKEYALFYKLDVVPIDDSNTSYRLISCNTSVIKQACPKVSFEPIPIHYCAPAGFAILKCRDKQFNGTGPCRNVSTVQCTHGIKPVVTTQLLLNGSLAEEEVVIRSANFSDNAKIIIVQLNESVQINCTRPNNNTRKSIPIGPGRAFYATGDIIGDIRQAHCDISKTRWNNTLKLIREKLKTQFGDKTIVFNQSSGGDPEIVTHSFNCGGEFFYCNTTPLFNSTEGSNTTAENNTTDIITLQCRIKQIINMWQKVGKAMYAPPIRGNISCSSNITGLLLTRDGGNTTDNGSEIFRPGGGDMRDNWRSELYKYKVVKIEPIGLAPTKAKRRVVQREKRALGMGALFLGFLGAAGSTMGAASVTLTVQARQLLSGIVQQQNNLLRAIEAQQHLLQLTVWGIKQLQARVLAVESYLRDQQLLGIWGCSGKLICTTAVPWNISWSKSKSWNKTNLADIWENMTWMQWESEIDNYTNIIYQLIEESQNQQEKNEKDLLELDKWASLWNWFSISNWLWYIKLFIMIVGGLIGLRIIFSVLSIVNRVRQGYSPLSFQTRPPAARGHDRPEGIEEGGGDRDRDRSNQLVDGFLALIWVDLRSLCLFSYHRLRNFLLVVTRIVELLGRRGWEILKYWWNLLQYWSQELKNSAVSLLNATAIAVAEGTDRVIEIVQRAFRAIIHIPTRIRQGFERALL
B4: HIV-1 Env, rebound clone, antibody arm (protein)
chain: MRVREIRRNYLWRWGTLLLGILIMICSADNWWVTVYYGVPVWKEATTTLFCASDAKAYETEVHNVWATHACVPTDPNPQEVALENVTENFNMWKNNMVEQMQEDIISLWDQSLKPCVELTPLCVTLNCTNVNNTRTNSTISGPTAKPGEEEMKNCSFNITTGIRDKIKKEYALFYKLDVVPIDDSNTSYRLISCNTSVIKQACPKVSFEPIPIHYCAPAGFAILKCRDKQFNGTGPCRNVSTVQCTHGIKPVVTTQLLLNGSLAEEEVVIRSANFSDNAKIIIVQLNESVQINCTRPNNNTRKSIPIGPGRAFYATGDIIGDIRQAHCSISKTRWNNTLKLIREKLKTQFGDKTIVFNQSSGGDPEIVTHSFNCGGEFFYCNTTPLFNSTEGSNTTAENNTTDIITLQCRIKQIINMWQKVGKAMYAPPIRGNISCSSNITGLLLTRDGGNTTDNGSEIFRPGGGDMRDNWRSELYKYKVVKIKPIGLAPTKAKRRVVQREKRALGMGALFLGFLGAAGSTMGAASVTLTVQARQLLSGIVQQQNNLLRAIEAQQHLLQLTVWGIKQLQARVLAVESYLRDQQLLGIWGCSGKLICTTAVPWNISWSKSKSWNKTNLADIWENMTWMQWESEIDNYTNIIYQLIEESQNQQEKNEKDLLELDKWASLWNWFSISNWLWYIKLFIMIVGGLIGLRIIFSVLSIVNRVRQGYSPLSFQTRPPAARGHDRPEGIEEGGGDRDRDRSNQLVDGFLALIWVDLRSLCLFSYHRLRDFLLVVTRIVELLGRRGWEILKYWWNLLQYWSQELKNSAVSLLNATAIAVAEGTDRVIEIVQRAFRAIIHIPTRIRQGFERALL
B5: HIV-1 Env, rebound clone, antibody arm (protein)
chain: MRVREIRRNYLWRWGTLLLGILMMICSADNWWVTVYYGVPVWKEATTTLFCASDAKAYETEVHNVWATHACVPTDPNPQEVALENVTENFNMWKNNMVEQMQEDIISLWDQSLKPCVELTPLCVTLNCTNVNNTRTNSTISGPTAKPGEEEMKNCSFNITTGIRDKIKKEYALFYKLDVVPIDDSNTSYRLISCNTSVIKQACPKVSFEPIPIHYCAPAGFAILKCRDKQFNGTGPCRNVSTVQCTHGIKPVVTTQLLLNGSLAEEEVVIRSANFSDNAKIIIVQLNESVQINCTRPNNNTRKSIPIGPGRAFYATGDIIGDIRQAHCDISKTRWNNTLKLIREKLKTQFGDKTIVFNQSSGGDPEIVTHSFNCGGEFFYCNTTPLFNSTEGSNTTAENNTTDIITLQCRIKQIINMWQKVGKAMYAPPIRGNISCSSNITGLLLTRDGGNTTDNGSEIFRPGGGDMRDNWRSELYKYKVVKIEPIGLAPTKAKRRVVQREKRALGMGALFLGFLGAAGSTMGAASVTLTVQARQLLSGIVQQQNNLLRAIEAQQHLLQLTVWGIKQLQARVLAVESYLRDQQLLGIWGCSGKLICTTAVPWNISWSKSKSWNKTNLADIWENMTWMQWESEIDNYTNIIYQLIEESQNQQEKNEKDLLELDKWASLWNWFSISNWLWYIKLFIMIVGGLIGLRIIFSVLSIVNRVRQGYSPLSFQTRPPAARGHDRPEGIEEGGGDRDRDRSNQLVDGFLALIWVDLRSLCLFSYHRLRDFLLVVTRIVELLGRRGWEILKYWWNLLQYWSQELKNSAVSLLNATAIAVAEGTDRVIEIVQRAFRAIIHIPTRIRQGFERALV
B6: HIV-1 Env, rebound clone, antibody arm (protein)
chain: MRVREIRRNYLWRWGTLLLGILMMICSADNWWVTVYYGVPVWKEATTTLFCASDAKAYETEVHNVWATHACVPTDPNPQEVALENVTENFNMWKNNMVEQMQEDIISLWDQSLKPCVELTPLCVTLNCTNVNNTRTNSTISGPTAKPGEEEMKNCSFNITTGIRDKIKKEYALFYKLDVVPIDDSNTSYRLISCNTSVIKQACPKVSFEPIPIHYCAPAGFAILKCRDKQFNGTGPCRNVSTVQCTHGIKPVVTTQLLLNGSLAEEEVVIRSANFSDNAKIIIVQLNESVQINCTRPNNNTRKSIPIGPGRAFYATGDIIGDIRQAHCDISKTRWNNTLKLIREKLKTQFGDKTIVFNQSSGGDPEIVTHSFNCGGEFFYCNTTPLFNSTEGSNTTAENNTTDIITLQCRIKQIINMWQKVGKAMYAPPIRGNISCSSNITGLLLTRDGGNTTDNGSEIFRPGGGDMRDNWRSELYKYKVVKIEPIGLAPTKAKRRVVQREKRALGMGALFLGFLGAAGSTMGAASVTLTVQARQLLSGIVQQQNNLLRAIEAQQHLLQLTVWGIKQLQARVLAVESYLRDQQLLGIWGCSGKLICTTAVPWNISWSKSKSWNKTNLADIWENMTWMQWESEIDNYTNIIYQLIEESQNQQEKNEKDLLELDKWASLWNWFSISNWLWYIKLFIMIVGGLIGLRIIFSVLSIVNRVRQGYSPLSFQTRPPAARGHDRPEGIEEGGGDRDRDRSNQLVDGFLALIWVDLRSLCLFSYHRLRDFLLVVTRIVELLGRRGWEILKYWWNLLQYWSQELKNSAVSLLNATAIAVAEGTDRVIEIVQRAFRAIIHIPTRIRQGFERALL

Biological target: antibody 10-1074
Assay: neutralization IC50; higher = virus less sensitive to the antibody
Protocol: (§1)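 Pseudovirus bearing the Env chain mixed with antibody, from 50 µg/ml in fivefold dilutions, on TZM-bl reporter cells, in duplicate.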

First: B1
Second: B2
The “neutralization IC50” value of the first is higher: over 50 µg/mL for the first, 0.027 µg/mL for the second.

B3 and B4 cannot be ordered by “neutralization IC50” value: over 50 µg/mL for the first, over 50 µg/mL for the second.

B5 and B6 cannot be ordered by “neutralization IC50” value: over 50 µg/mL for the first, over 50 µg/mL for the second.

Biological target: antibody 3BNC117
Assay: as above
Protocol: as §1

B1 and B2 are within 1.5-fold of each other in “neutralization IC50” value: 0.136 µg/mL for the first, 0.146 µg/mL for the second.

B3 and B4 are within 1.5-fold of each other in “neutralization IC50” value: 0.434 µg/mL for the first, 0.302 µg/mL for the second.

B5 and B6 are within 1.5-fold of each other in “neutralization IC50” value: 0.174 µg/mL for the first, 0.197 µg/mL for the second.

Biological target: antibody 10-1074
Assay: neutralization IC80; higher = virus less sensitive to the antibody
Protocol: as §1

First: B1
Second: B2
The “neutralization IC80” value of the first is higher: over 50 µg/mL for the first, 0.077 µg/mL for the second.

B3 and B4 cannot be ordered by “neutralization IC80” value: over 50 µg/mL for the first, over 50 µg/mL for the second.

B5 and B6 cannot be ordered by “neutralization IC80” value: over 50 µg/mL for the first, over 50 µg/mL for the second.

Biological target: antibody 3BNC117
Assay: as above
Protocol: as §1

B1 and B2 are within 1.5-fold of each other in “neutralization IC80” value: 0.627 µg/mL for the first, 0.687 µg/mL for the second.

B3 and B4 are within 1.5-fold of each other in “neutralization IC80” value: 1.34 µg/mL for the first, 0.964 µg/mL for the second.

Going from B5 to B6, the “neutralization IC80” value rises from 0.514 µg/mL to 0.939 µg/mL (1.8-fold).
